Structures are written as SMILES.

The target of this assay is SARS-3CL^pro (Severe acute respiratory syndrome coronavirus (SARS-CoV), UniProt P0C6X7). The class given is biochemical.

The IC50 is the concentration at which inhibition is half-maximal. Read a high IC50 as a need for much substance. `CC(C)(C)NC(=O)C(c1ccsc1)N(C(=O)Cn1nnc2ccccc21)c1ccc(NC(=O)C2CC2)cc1` (stereo not shown) [Compound 2P, reference compound] displayed an IC50 of 8.9 ± 1.4 µM.

For the origin of these results see patent US9975885B2, “Broad-spectrum non-covalent coronavirus protease inhibitors” (priority 2016, dated 2018).
